Data taken from ChEMBL document CHEMBL4828740, “Discovery of Quinoxaline-Based P1-P3 Macrocyclic NS3/4A Protease Inhibitors with Potent Activity against Drug-Resistant Hepatitis C Virus Variants” (J Med Chem, 2021).

System: Hepatitis C virus
Assay: Antiviral activity against HCV genotype 1b harboring A156T mutant infected in human Huh7 cells incubated for 96 hrs by luciferase assay
Format: functional, organism-based, Hepacivirus hominis
Details: subtype 1b, Huh-7, 96 h

In the case of CC(C)(C)[C@@H]1NC(=O)O[C@@H]2CCC[C@H]2OC/C=C/C(F)(F)c2nc3ccccc3nc2O[C@@H]2C[C@@H](C(=O)N[C@]3(C(=O)NS(=O)(=O)C4(C)CC4)C[C@H]3C(F)F)N(C2)C1=O, the EC50 is reported as 230 nM.
